Changes are numbered by the printed parent chain.
B1: [Ala5;Glu15]GpTx-1(1-34) (peptide)
peptide: DCLGAMRKCIPDNDECCRPNLVCSRTHKWCKYVF
modifications: not checked
B2: [Arg28;Trp32]GpTx-1(1-34) (peptide)
peptide: B1 peptide with A5F, E15K, K28R, Y32W
modifications: not checked
B3: [Arg28;Trp33]GpTx-1(1-34) (peptide)
peptide: B1 peptide with A5F, E15K, K28R, V33W
modifications: not checked
B4: [Leu26;Trp32]GpTx-1(1-34) (peptide)
peptide: B1 peptide with A5F, E15K, T26L, Y32W
modifications: not checked
B5: [Trp32,33]GpTx-1(1-34) (peptide)
peptide: B1 peptide with A5F, E15K, Y32W, V33W
modifications: not checked
B6: [Glu4]GpTx-1(1-34) (peptide)
peptide: B1 peptide with G4E, A5F, E15K
modifications: not checked
B7: [Trp4]GpTx-1(1-34) (peptide)
peptide: B1 peptide with G4W, A5F, E15K
modifications: not checked
B8: [Arg5]GpTx-1(1-34) (peptide)
peptide: B1 peptide with A5R, E15K
modifications: not checked
B9: [Trp5]GpTx-1(1-34) (peptide)
peptide: B1 peptide with A5W, E15K
modifications: not checked
B10: [His5]GpTx-1(1-34) (peptide)
peptide: B1 peptide with A5H, E15K
modifications: not checked
B11: [Pro5]GpTx-1(1-34) (peptide)
peptide: B1 peptide with A5P, E15K
modifications: not checked
B12: [Thr5]GpTx-1(1-34) (peptide)
peptide: B1 peptide with A5T, E15K
modifications: not checked
B13: [Tyr5]GpTx-1(1-34) (peptide)
peptide: B1 peptide with A5Y, E15K
modifications: not checked
B14: [Glu18]GpTx-1(1-34) (peptide)
peptide: B1 peptide with A5F, E15K, R18E
modifications: not checked
B15: [Trp18]GpTx-1(1-34) (peptide)
peptide: B1 peptide with A5F, E15K, R18W
modifications: not checked
B16: [Ala5; Trp33]GpTx-1(1-34) (peptide)
peptide: B1 peptide with E15K, V33W
modifications: not checked
B17: [Ala11]GpTx-1(1-34) (peptide)
peptide: B1 peptide with A5F, P11A, E15K
modifications: not checked
B18: [Trp11]GpTx-1(1-34) (peptide)
peptide: B1 peptide with A5F, P11W, E15K
modifications: not checked
B19: [Glu12]GpTx-1(1-34) (peptide)
peptide: B1 peptide with A5F, D12E, E15K
modifications: not checked
B20: [Lys12]GpTx-1(1-34) (peptide)
peptide: B1 peptide with A5F, D12K, E15K
modifications: not checked
B21: [Arg12]GpTx-1(1-34) (peptide)
peptide: B1 peptide with A5F, D12R, E15K
modifications: not checked
B22: [Trp12]GpTx-1(1-34) (peptide)
peptide: B1 peptide with A5F, D12W, E15K
modifications: not checked
B23: [Ser12]GpTx-1(1-34) (peptide)
peptide: B1 peptide with A5F, D12S, E15K
modifications: not checked
B24: [Gly12]GpTx-1(1-34) (peptide)
peptide: B1 peptide with A5F, D12G, E15K
modifications: not checked
B25: [Ile12]GpTx-1(1-34) (peptide)
peptide: B1 peptide with A5F, D12I, E15K
modifications: not checked
B26: [Leu12]GpTx-1(1-34) (peptide)
peptide: B1 peptide with A5F, D12L, E15K
modifications: not checked

What follows are binders tested against human Nav1.3 voltage-gated sodium channel (human), Q9NY46 (assay: cell-based or functional assay).

Row | Binder | IWQ Use Nav1.3 (µM); IC50 of peak inward current, IonWorks Quattro | IWQ Use Nav1.3 (µM): IC50 of peak inward current block, IonWorks Quattro | IWQ Use Nav1.3 (µM): IC50 of peak inward current, IonWorks Quattro | Nav1.3 Use IC50 (µM), PatchXpress electrophysiology
1 | B1 | 4.8 µM | – | – | –
2 | B2 | 0.07 µM | – | – | –
3 | B3 | 0.04 µM | – | – | –
4 | B4 | 0.06 µM | – | – | –
5 | B5 | 0.03 µM | – | – | –
6 | B6 | – | 1.33 µM | – | –
7 | B7 | – | 0.03 µM | – | –
8 | B8 | – | – | 4.09 µM | –
9 | B9 | – | – | 0.11 µM | –
10 | B10 | – | – | 8.37 µM | –
11 | B11 | – | – | 1.73 µM | –
12 | B12 | – | – | 2.19 µM | –
13 | B13 | – | – | 1.64 µM | –
14 | B14 | – | – | – | 0.098 µM
15 | B15 | – | – | – | 0.042 µM
16 | B16 | – | – | – | 0.569 µM
17 | B17 | 0.18 µM | – | – | –
18 | B18 | 0.04 µM | – | – | –
19 | B19 | 0.19 µM | – | – | –
20 | B20 | 0.09 µM | – | – | –
21 | B21 | 0.14 µM | – | – | –
22 | B22 | 0.04 µM | – | – | –
23 | B23 | 0.19 µM | – | – | –
24 | B24 | 0.047 µM | – | – | –
25 | B25 | 0.607 µM | – | – | –
26 | B26 | 0.071 µM | – | – | –

Each binder was assayed against human Nav1.5 voltage-gated sodium channel (human), Q14524 (assay: cell-based or functional assay).

Row | Binder | IWQ Use Nav1.5 (µM); IC50 of peak inward current, IonWorks Quattro | IWQ Use Nav1.5 (µM): IC50 of peak inward current block, IonWorks Quattro | IWQ Use Nav1.5 (µM): IC50 of peak inward current, IonWorks Quattro | Nav1.5 Use IC50 (µM), PatchXpress electrophysiology
27 | B1 | 10.8 µM | – | – | –
28 | B2 | 4.92 µM | – | – | –
29 | B3 | > 5 µM | – | – | –
30 | B4 | > 5 µM | – | – | –
31 | B5 | 11.5 µM | – | – | –
32 | B6 | – | 17.6 µM | – | –
33 | B7 | – | 10.3 µM | – | –
34 | B8 | – | – | 12.6 µM | –
35 | B9 | – | – | 9.32 µM | –
36 | B10 | – | – | 6.62 µM | –
37 | B11 | – | – | 6.61 µM | –
38 | B12 | – | – | 15.2 µM | –
39 | B13 | – | – | 15.6 µM | –
40 | B14 | – | – | – | > 10 µM
41 | B15 | – | – | – | > 10 µM
42 | B16 | – | – | – | > 10 µM
43 | B17 | 16.1 µM | – | – | –
44 | B18 | 9.5 µM | – | – | –
45 | B19 | 6.45 µM | – | – | –
46 | B20 | 6.51 µM | – | – | –
47 | B21 | 5 µM | – | – | –
48 | B22 | 8.04 µM | – | – | –
49 | B23 | 9.58 µM | – | – | –
50 | B24 | 8.76 µM | – | – | –
51 | B25 | 18.3 µM | – | – | –
52 | B26 | 6.83 µM | – | – | –

The binders below were run against human Nav1.7 voltage-gated sodium channel (human), Q15858 (assay: cell-based or functional assay).

Row | Binder | IWQ Use Nav1.7 (µM); IC50 of peak inward current, IonWorks Quattro | IWQ Use Nav1.7 (µM): IC50 of peak inward current block, IonWorks Quattro | IWQ Use Nav1.7 (µM): IC50 of peak inward current, IonWorks Quattro | Nav1.7 Use IC50 (µM), PatchXpress electrophysiology
53 | B1 | 2.41 µM | – | – | –
54 | B2 | 0.07 µM | – | – | –
55 | B3 | 0.03 µM | – | – | –
56 | B4 | 0.04 µM | – | – | –
57 | B5 | 0.05 µM | – | – | –
58 | B6 | – | 1.74 µM | – | –
59 | B7 | – | 0.05 µM | – | –
60 | B8 | – | – | 3.63 µM | –
61 | B9 | – | – | 0.15 µM | –
62 | B10 | – | – | 4.74 µM | –
63 | B11 | – | – | 1.17 µM | –
64 | B12 | – | – | 1.22 µM | –
65 | B13 | – | – | 1.43 µM | –
66 | B14 | – | – | – | 0.018 µM
67 | B15 | – | – | – | 0.024 µM
68 | B16 | – | – | – | 0.034 µM
69 | B17 | 0.21 µM | – | – | –
70 | B18 | 0.07 µM | – | – | –
71 | B19 | 0.26 µM | – | – | –
72 | B20 | 0.12 µM | – | – | –
73 | B21 | 0.11 µM | – | – | –
74 | B22 | 0.05 µM | – | – | –
75 | B23 | 0.08 µM | – | – | –
76 | B24 | 0.075 µM | – | – | –
77 | B25 | 0.662 µM | – | – | –
78 | B26 | 0.08 µM | – | – | –
